The assay addresses hemagglutinin (HA) ectodomain of A/Vietnam/1203/2004 (H5N1) (influenza A virus A/Vietnam/1203/2004 …, biotin on the BirA site). Conditions: both partners purified.

This passage reports koff results from article PMC12714728 (npj Viruses, 2025).

With CYRDPLGVAGEMC (disulfide between the two Cys (sidechain-sidechain cyclization)) [cyclic peptide CP13], the koff was found to be 2.52 s⁻¹.
